In patent US20100086555A1 (INSTITUTE FOR RESEARCH IN BIOMEDICINE, published 2010):

How the values were obtained:
Assay in all cases: cell-based or functional assay
[1] = molecular target: T1, H1 HA A/NC/20/99 (on infectious virus) (influenza A virus A/NC/20/99 (H1N1))
[2] = molecular target: T1, H1 HA A/NC/20/99 (on infectious virus); remark: listed apart in the source
[3] = molecular target: T2, H1 HA A/swine/Iowa/31 (on infectious virus) (influenza A virus A/swine/Iowa/31 (H1N1))
[4] = molecular target: T3, H1 HA A/CA/07/09 (on infectious virus) (influenza A virus A/CA/07/09 (H1N1))
[5] = molecular target: H3 HA A/WY/3/03 (on infectious virus) (influenza A virus A/WY/3/03 (H3N2))
[6] = molecular target: T2, H1 HA A/swine/Iowa/31 (on infectious …); remark: listed apart in the source
[7] = molecular target: T3, H1 HA A/CA/07/09 (on infectious virus); remark: listed apart in the source
[8] = molecular target: T4, H1 HA A/NJ/76 (on infectious virus) (influenza A virus A/NJ/76 (H1N1))
[9] = molecular target: T5, H5 HA A/VN/1203/04 (on pseudotypes and on infectious virus) (influenza A virus A/VN/1203/04 (H5N1))
[10] = molecular target: T4, H1 HA A/NJ/76 (on infectious virus); remark: listed apart in the source
[11] = molecular target: T6, H1 HA A/PR/8/34 (on infectious virus) (influenza A virus A/PR/8/34 (H1N1), UniProt P03452 18-565)
[12] = molecular target: T5, H5 HA A/VN/1203/04 (on pseudotypes and …); remark: listed apart in the source
[13] = molecular target: T7, H5 HA A/VN/1194/04 (on pseudotypes) (influenza A virus A/VN/1194/04 (H5N1))
[14] = molecular target: T8, H1 HA A/SI/3/06 (on infectious virus) (influenza A virus A/SI/3/06 (H1N1))
[15] = molecular target: H9 HA A/ck/HK/G9/97 (on infectious virus) (influenza A virus A/ck/HK/G9/97 (H9N2))
[16] = molecular target: T5, H5 HA A/VN/1203/04 (on pseudotypes and …); remark: listed apart in the source
[17] = molecular target: T8, H1 HA A/SI/3/06 (on infectious virus); remark: listed apart in the source
[18] = molecular target: T6, H1 HA A/PR/8/34 (on infectious virus); remark: listed apart in the source
[19] = molecular target: H5 HA A/HK/213/03 (on pseudotypes) (influenza A virus A/HK/213/03 (H5N1))
[20] = molecular target: T5, H5 HA A/VN/1203/04 (on pseudotypes and …); remark: listed apart in the source
[21] = molecular target: T7, H5 HA A/VN/1194/04 (on pseudotypes); remark: listed apart in the source
[22] = molecular target: H5 HA A/Anhui/1/5 (on pseudotypes) (influenza A virus A/Anhui/1/5 (H5N1))
[23] = molecular target: T9, H5 HA A/INDO/5/05 (on pseudotypes and on infectious virus) (influenza A virus A/INDO/5/05 (H5N1))
[24] = molecular target: H5 HA A/HK/491/97 (on pseudotypes) (influenza A virus A/HK/491/97 (H5N1))
[25] = molecular target: H5 HA A/WS/Mong/244/05 (on pseudotypes) (influenza A virus A/WS/Mong/244/05 …)
[26] = molecular target: T5, H5 HA A/VN/1203/04 (on pseudotypes and …); remark: listed apart in the source
[27] = molecular target: T6, H1 HA A/PR/8/34 (on infectious virus); remark: listed apart in the source
[28] = molecular target: T9, H5 HA A/INDO/5/05 (on pseudotypes and …); remark: listed apart in the source
[29] = molecular target: H2 HA A/JP/305/57 (on infectious virus) (influenza A virus A/JP/305/57 (H2N2), UniProt P03451 16-562)

| Binder | Neutralization H1N1 IC90 [1] | Neutralization of infectious viruses (IC50) [2] | Hemagglutination inhibition titer [3] | Hemagglutination inhibition titer [4] | Neutralization H3N2 IC50 [5] | Neutralization of infectious viruses (IC50) [6] | Neutralization of infectious viruses (IC50) [7] | Neutralization of infectious viruses (IC50) [8] | Hemagglutination inhibition titer [9] | Neutralization of infectious viruses (IC50) [16] | Neutralization of infectious viruses (IC50) [17] | Neutralization of infectious viruses (IC50) [18] | Neutralization of HA-pseudotypes (IC90) [19] | Neutralization of HA-pseudotypes (IC90) [20] | Neutralization of HA-pseudotypes (IC90) [21] | Neutralization of HA-pseudotypes (IC90) [22] | Neutralization of HA-pseudotypes (IC90) [23] | Neutralization of HA-pseudotypes (IC90) [24] | Neutralization of HA-pseudotypes (IC90) [25] | Neutralization of infectious viruses (IC50) [28] | further results |
| --- | --- | --- | --- | --- | --- | --- | --- | --- | --- | --- | --- | --- | --- | --- | --- | --- | --- | --- | --- | --- | --- |
| FB54 (antibody, V domains shown) VH: QVQLVQSGAEVKKPGSSLKVSCKASGVTFSMYTISWVRQAPGQGLEWMGGIIPLFGTANYEQKFQGRVTITADTSTNTAYMELSSLRSEDTAVYYCARAGTTLTRFNWFDPWGQGTLVTVSS VL: not shown | 25 µg/mL | 50 µg/mL | – | – | – | – | – | – | – | – | – | – | – | – | – | – | – | – | – | – | – |
| FC41 (antibody, V domains shown) VH: QVQLVQPGAEVKKPGSSVKVSCKASGGIFSPYAISWVRQAPGQGLEWMGGIIAIFGTTNYAQKFQGRVTITADKSTTTAYLELNSLRFEDTAVYYCARGGRYYVDYFDYWGQGTLVSVSS VL: not shown | 6.2 µg/mL | 63 µg/mL | 10 | 20 | > 50 µg/mL | 0.5 µg/mL | 0.2 µg/mL | 0.3 µg/mL | – | – | – | – | – | – | – | – | – | – | – | – | – |
| FE17 (antibody, V domains shown) VH: QPQLQESGPGLVRPSETLSLTCTVSGDSVTRGGFYWGWIRQPPGKGLEWIGSIYYNYNIYHSPSLKSRVSLSVDTSKNQVSLKLASVTAADTAVYYCARHYPYYDLPTGFYSQFDFWGQGTPVTVSS VL: QSVLTQPPSASGAPGQRVTLSCSGSGSNIGSNTVSWYQQLPGTAPKLLVFTNNQRPSGVPDRFSGSKSGTSASLAISGLQSEDEADYYCAAWDDSLNGQLFGGGTKLTVL | 0.05 µg/mL | 0.3 µg/mL | > 1280 | < 5 | 16.6 µg/mL | 0.1 µg/mL | > 50 µg/mL | > 50 µg/mL | > 1280 | 6 µg/mL | < 0.04 µg/mL | 2 µg/mL | 0.367 µg/mL | 0.525 µg/mL | 0.367 µg/mL | > 50 µg/mL | > 50 µg/mL | 0.099 µg/mL | 1.8 µg/mL | – | Hemagglutination inhibition titer [10]: < 5; Hemagglutination inhibition titer [11]: > 1280; Neutralization H5N1 IC50 [12]: 0.7 µg/mL; Neutralization H5pp IC90 [13]: 0.3 µg/mL; Neutralization H1N1 IC90 [14]: 0.2 µg/mL; Neutralization H9N2 IC50 [15]: 16.6 µg/mL; Neutralization of infectious viruses (IC50) [26]: 6 µg/mL; Neutralization of infectious viruses (IC50) [27]: 1 µg/mL |
| FB75 (antibody, V domains shown) VH: EVQLLESGGGLVHPGGSLRLSCAASGFTFSNYAMSWVRQAPGKGLEWVSSINSGGGATYYADSVKGRFTISRDNSKNTLSLQMNSLRAEDTAVYYCAKEGGNTIFGLVTMAYYFDSWGQGTLVTVSS VL: QSALTQPASVSGSPGQSITISCTGTGSDVGSSNLVSWYQQHPAKAPKLIIYEVTKRPSGVSNRFSGSKSGNTASLTISGLQAEDEADYYCCSYAGSSSSRVFGTGTKVTVL | 3.1 µg/mL | 36 µg/mL | – | – | > 50 µg/mL | – | – | – | – | 63 µg/mL | 8 µg/mL | 10 µg/mL | 0.013 µg/mL | 0.02 µg/mL | 0.011 µg/mL | 0.026 µg/mL | 0.054 µg/mL | 0.621 µg/mL | 0.026 µg/mL | 16 µg/mL | Neutralization H5N1 IC50 [12]: > 50 µg/mL; Neutralization H5pp IC90 [13]: 0.002 µg/mL; Neutralization H1N1 IC90 [14]: 6.2 µg/mL; Neutralization H9N2 IC50 [15]: 5 µg/mL |
| FB177 (antibody, V domains shown) VH: EVQLLESGGGLVHPGGSLRLSCAASGFTFSNYAMSWVRQAPGKGLEWVSSINSGGGATYYADSVKGRFTISRDNSKNTLSLQMNSLRAEDTAVYYCAKEGGNTIFGLVTMAYYFDSWGQGTLVTVSS VL: QSALTQPASVSGSPGQSITISCTGTGSDVGSSNLVSWYQQHPAKAPKLIIYEVTKRPSGVSNRFSGSKSGNTASLTISGLQAEDEADYYCCSYAGSSSSRVFGTGTKVTVL | – | 40 µg/mL | – | – | – | – | – | – | – | – | 13 µg/mL | 20 µg/mL | 0.004 µg/mL | 0.018 µg/mL | 0.002 µg/mL | 0.039 µg/mL | 0.552 µg/mL | 1.31 µg/mL | 8.07 µg/mL | 18 µg/mL | Neutralization of infectious viruses (IC50) [29]: 63 µg/mL |
| FB110 (antibody, V domains shown) VH: EVQLLESGGGLVHPGGSLRLSCAASGFTFSNYAMSWVRQAPGKGLEWVSSINSGGGATYYADSVKGRFTISRDNSKNTLSLQMNSLRAEDTAVYYCAKEGGNTIFGLVTMAYYFDSWGQGTLVTVSS VL: QSALTQPASVSGSPGQSITISCTGTGSDVGSSNLVSWYQQHPAKAPKLIIYEVTKRPSGVSNRFSGSKSGNTASLTISGLQAEDEADYYCCSYAGSSSSRVFGTGTKVTVL | – | 22 µg/mL | 160 | 320 | – | 1.2 µg/mL | 0.4 µg/mL | 1.2 µg/mL | 80 | 36 µg/mL | 5 µg/mL | 6 µg/mL | 0.013 µg/mL | 0.017 µg/mL | 0.018 µg/mL | 0.037 µg/mL | 0.066 µg/mL | 3.62 µg/mL | 0.06 µg/mL | 22 µg/mL | Hemagglutination inhibition titer [10]: 160; Neutralization of infectious viruses (IC50) [29]: 7 µg/mL; Neutralization of infectious viruses (IC50) [26]: > 50 µg/mL; Neutralization of infectious viruses (IC50) [27]: 0.4 µg/mL |

Read-outs that look alike come from different tables or passages of the source.
